Pooled drug test results. Numbers come from NIAID ChemDB, via PubChem.

All rows: whole-cell or culture tests; species: HIV-1; measure: EC50

Rows are shuffled and stem from different studies.

structure | cells | method | changes | strain or isolate | value
Cc1cc(S(N)(=O)=O)ccc1NC(=O)COc1ccc(Cl)cc1C(=O)c1cccc(C#N)c1 | HeLa + HELA CD4+ | β-galactosidase | RT-G190A | HXB2 | <0.01 µM
CCC1=C(C(=O)OCC2CCCCC2)C(c2cccc([N+](=O)[O-])c2)NC(=O)N1 | CEM | p24 / ELISA | - | - | ≤1 µM
CO[C@]1(C)CC[C@@H](N(C)C(=O)C(=O)N(C)C)c2nc(C(=O)NCc3ccc(F)c(C)c3)c(O)c(=O)n2C1 | HeLa P4-2 | single cycle | Y143R | - | 0.002 µM
Cc1cc(OCCCS(N)(=O)=O)ccc1NC(=O)COc1ccc(Cl)cc1C(=O)c1cc(F)cc(C(F)(F)F)c1 | HeLa + HELA CD4+ | β-galactosidase | RT-K101E | HXB2 | <0.01 µM
Cc1cn(C2OC(CO[Si](C)(C)C(C)(C)C)C3(OS(=O)(=O)C=C3N)C2O[Si](C)(C)C(C)(C)C)c(=O)n(/C=C/CO)c1=O | MT-4 | trypan blue | - | IIIB | 0.04 µM
Cc1ccc(C(C)C)c2oc(=O)c(C(=O)/C=C/c3ccc(N(C)C)cc3)c(O)c12 | MT-4 | virus yield | - | IIIB | >125 µg/mL
Cc1cc(CNC(=O)c2nc3n(c(=O)c2O)[C@@H](C)COC[C@@H]3N(C)C(=O)C(=O)N(C)C)ccc1F | HeLa P4-2 | single cycle | Q148R | - | 0.003 µM
Cc1cc(C#N)cc(C(=O)c2cc(Cl)ccc2OCC(=O)Nc2ccc(OCCCN3CC=CC3)cc2C)c1 | MT-4 | cytopathic effect / propidium iodide | RT-Y181C | Nevirapine-resistant (RT Y181C) | <0.01 µM
C[C@H]1CO[C@@H]2Cn3cc(C(=O)NCc4ccc(F)cc4F)c(=O)c(O)c3C(=O)N12 | CBMC | RT activity | - | NL4-3 | 0.00056 µM
CC(C)C1=C2[C@H]3CC[C@@H]4[C@@]5(C)CC[C@H](OC(=O)[C@H]6C[C@@H](C(=O)O)C6(C)C)C(C)(C)[C@@H]5CC[C@@]4(C)[C@]3(C)CC[C@@]2(CCNCC(C)(C)NC(=O)c2ccc(O[C@@H]3CCOC3)cc2)CC1=O | MT-2 | p24 / ELISA | - | 92HT599 | <1 µM
Cc1cc(S(N)(=O)=O)ccc1NC(=O)COc1ccc(Cl)cc1C(=O)c1cc(F)cc(F)c1 | HeLa + HELA CD4+ | β-galactosidase | RT-L100I | HXB2 | <0.01 µM
Cc1cc(CNC(=O)c2nc3n(c(=O)c2O)CC(C)(C)CCC3N(C)C(=O)C(=O)N(C)C)ccc1F | HeLa P4-2 | single cycle | Y143R | - | 0.001 µM
Cc1cc2oc(=O)c(C(=O)/C=C/c3cccc([N+](=O)[O-])c3)c(O)c2cc1Cl | MT-4 | virus yield | - | IIIB | >56 µg/mL
CCC1=C(C(=O)OCC2CCCCC2)C(c2ccc([N+](=O)[O-])c([N+](=O)[O-])c2)NC(=O)N1 | CEM | p24 / ELISA | - | - | ≤1 µM
CC(C)C1=C2[C@H]3CC[C@@H]4[C@@]5(C)CC[C@H](OC(=O)[C@H]6C[C@@H](C(=O)O)C6(C)C)C(C)(C)[C@@H]5CC[C@@]4(C)[C@]3(C)CC[C@@]2(CCNCc2ccc(N3CCC(O)CC3)cc2)CC1=O | MT-2 | p24 / ELISA | - | 92HT599 | <1 µM
CCCCCCCCCCCCOCC(COP(=O)([O-])OCC[N+](C)(C)C)OCCCCCCCCCC | CEM + CEM-SS | plaque count / syncytia | - | - | 0.32 µM
Cc1cc(S(N)(=O)=O)ccc1NC(=O)COc1ccc(Cl)cc1C(=O)c1cc(Cl)cc(C#N)c1 | HeLa + HELA CD4+ | β-galactosidase | RT-K103N Y181C | HXB2 (RT-K103N Y181C) Recombinant | <0.01 µM
CCCCCCCCCCCCOC(CNC(=O)CCCCCCCCCCC)COP(=O)([O-])OCC[N+](C)(C)C | CEM + CEM-SS | plaque count / syncytia | - | - | 0.11 µM
CC[C@@H]1COC[C@H](N(C)C(=O)C(=O)N(C)C)c2nc(C(=O)NCc3ccc(F)cc3)c(O)c(=O)n21 | HeLa P4-2 | single cycle | Y143R | - | 0.002 µM
O=C1NC(c2ccccc2)=C(C(=O)OCC2CCCCC2)C(c2cccc(O)c2)N1 | CEM | p24 / ELISA | - | - | >5 µM
Cc1cc(C#N)cc(C(=O)c2cc(Cl)ccc2OCC(=O)Nc2cnc(S(N)(=O)=O)cc2C)c1 | HeLa + HELA CD4+ | β-galactosidase | RT-K103N P225H | HXB2 | <0.01 µM
CC(C)C1=C2[C@H]3CC[C@@H]4[C@@]5(C)CC[C@H](OC(=O)[C@H]6C[C@@H](C(=O)O)C6(C)C)C(C)(C)[C@@H]5CC[C@@]4(C)[C@]3(C)CC[C@@]2(CCNCc2ccc3c(c2)OCO3)CC1=O | MT-2 | p24 / ELISA | - | 92HT599 | <1 µM
CC(C)(C)C(=O)SCCOP(=O)(OCCSC(=O)C(C)(C)C)OC[C@H]1O[C@@H](n2ccc(N)nc2=O)CS1 | MOLT-4/8 + MOLT-4 | MTT / p24 | - | RF | 0.008 µM
CCOC(=O)c1cc(C(=O)NCc2ccccn2)n2ccc(C(=O)c3ccco3)cc12 | H9 | p24 / antigen | - | - | 42.1 µM
COc1cc(/C=C/C(=O)c2c(O)c3c(C)ccc(C(C)C)c3oc2=O)ccc1O | MT-4 | virus yield | - | IIIB | >15.11 µg/mL
CCOC(=O)c1cc(C(=O)NCc2cccnc2)n2ccc(C(=O)c3ccco3)cc12 | H9 | p24 / antigen | - | - | 55.2 µM
Cc1cc(S(N)(=O)=O)ccc1NC(=O)COc1ccc(Cl)cc1C(=O)c1cc(C#N)cc(C#N)c1 | MT-4 | cytopathic effect / propidium iodide | RT-Y181C | Nevirapine-resistant (RT Y181C) | <0.01 µM
COc1ccc(/C=C/C(=O)c2c(O)c3c(C)ccc(C(C)C)c3oc2=O)cc1OC | MT-4 | virus yield | - | IIIB | >28.15 µg/mL
CCOC(=O)c1cc(C(=O)c2ccc(F)cc2)n2ccc(C(=O)NCc3ccccn3)cc12 | H9 | p24 / antigen | - | - | 54.4 µM
Cc1cc2oc(=O)c(C(=O)/C=C/c3ccc(O)cc3)c(O)c2cc1Cl | MT-4 | virus yield | - | IIIB | >2 µg/mL
Cc1cn(C2OC(CO[Si](C)(C)C(C)(C)C)C3(OS(=O)(=O)C=C3N)C2O[Si](C)(C)C(C)(C)C)c(=O)n(/C=C\CO)c1=O | MT-4 | trypan blue | - | IIIB | 0.32 µM
CC(C)C1=C2[C@H]3CC[C@@H]4[C@@]5(C)CC[C@H](OC(=O)[C@H]6C[C@@H](C(=O)O)C6(C)C)C(C)(C)[C@@H]5CC[C@@]4(C)[C@]3(C)CC[C@@]2(CC(=O)NCC(C)(C)NC(=O)c2csc(N)n2)CC1=O | MT-2 | p24 / ELISA | - | 92HT599 | <1 µM
CCOC(=O)c1cc(C(=O)c2ccccc2)n2cccc(C(=O)NCc3ccccn3)c12 | H9 | p24 / antigen | - | - | 69.7 µM
[2H]C([2H])(CNC(=O)C[C@@]12CC[C@]3(C)[C@H](CC[C@@H]4[C@@]5(C)CC[C@H](OC(=O)[C@H]6C[C@@H](C(=O)O)C6(C)C)C(C)(C)[C@@H]5CC[C@]43C)C1=C(C(C)C)C(=O)C2)NC(=O)c1ccc(Cl)cc1 | MT-2 | p24 / ELISA | - | 92HT599 | <1 µM
CCOC(=O)c1cc(C(=O)c2ccccc2N)n2ccc(C(=O)NCc3ccccn3)cc12 | H9 | p24 / antigen | - | - | 45.5 µM
CCOC(=O)C1=C(C)NC(=O)NC1c1cccc(O)c1 | CEM | p24 / ELISA | - | - | >5 µM
CC[C@H]1COC[C@@H](N(C)C(=O)C(=O)N(C)C)c2nc(C(=O)NCc3ccc(F)cc3)c(O)c(=O)n21 | HeLa P4-2 | single cycle | G140S/Q148H | - | 0.004 µM
Cc1cn(C2OC(CO[Si](C)(C)C(C)(C)C)C3(OS(=O)(=O)C=C3N)C2O[Si](C)(C)C(C)(C)C)c(=O)n(CC(=O)N(CCCl)CCCl)c1=O | MT-4 | trypan blue | - | IIIB | 0.08 µM
CC(C)C1=C2[C@H]3CC[C@@H]4[C@@]5(C)CC[C@H](OC(=O)[C@H]6C[C@@H](C(=O)O)C6(C)C)C(C)(C)[C@@H]5CC[C@@]4(C)[C@]3(C)CC[C@@]2(CCNC(=O)c2ccc3nc[nH]c3c2)CC1=O | MT-2 | p24 / ELISA | - | 92HT599 | <1 µM
Cc1cc(CNC(=O)c2nc3n(c(=O)c2O)[C@@H](C)COC[C@H]3N(C)C(=O)C(=O)N(C)C)ccc1F | HeLa P4-2 | single cycle | E92Q | - | 0.001 µM

Blank or dashed fields: not listed here. ECn is the concentration giving n% inhibition of infection, replication or growth.